Reference: patent US6800101B2, “Deactivatable biocides for hydrocarbonaceous products” (priority 2001, dated 2004)

Tested on: alkane degrading culture
Experiment: Test for rapidly biodegradable hydrocarbonaceous products (visual growth after inoculation)
Type: cell-based
Settings: 90 ml media, 10 ml product, 10 μl inoculum

`CCCCCCCCCCCCCCCC` [n-C16] was tested. Which growth (at 2 days) did it give?
The growth was “no growth”.

What about the growth (at 6 days) of the same compound?
The growth was “growth”.
